Measurements reported in PubChem BioAssay AID1259414 (Drosophila RNAi Screening Center, 2018)

- Screen: 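Host factors increasing or decreasing Wolbachia levels in cultured fly cells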 (primary screen)
- System: Drosophila JW18 cells infected with Wolbachia
- Reagents: long dsRNA against Drosophila genes, 0.25 µg dsRNA per well of a 384-well plate
- Timing: 5 days
- Conditions: cells persistently infected with Wolbachia before knock-down; no added drug
- Measured: 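Automated imaging of bacterial rRNA staining divided by host cell count, reported as plate-normalised robust z-score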
- Scale: Wolbachia per cell robust z: higher = more Wolbachia per host cell than the plate typical
- Call rule: 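Active if absolute robust z reaches 1.5 in two or more of three replicates, leaving out multi- or no-target dsRNAs, genes unexpressed in JW18 and A1 wells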
In all, the deposit lists about 24,000 reagents; this is a random part of those with a known target gene and a result. Of all reagents, about 1,210 (5%) were called active. 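Inactive calls also include excluded dsRNAs with several or no targets, genes unexpressed in JW18, and well A1, regardless of score.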 Reagents against one gene are numbered here.

gene	reagent no.	Wolbachia per cell robust z, rep 1	Wolbachia per cell robust z, rep 2	Wolbachia per cell robust z, rep 3	call
CG32988	1	0.26	0.166	-4.25	inactive
Nckx30C	1	-0.83	0.0422	-1.01	inactive
Nckx30C	2	0.156	-0.794	0.26	inactive
Nckx30C	3	0.0691	0.616	0.269	inactive
Nckx30C	4	-0.0737	0.452	-0.328	inactive
rudhira	1	0.838	-0.634	-0.365	inactive
rudhira	2	0.855	0.565	0.76	inactive
rudhira	3	-0.61	-2.18	-1.2	inactive
CG6660	1	0.684	-2.29	0.301	inactive
CG14507	1	-1.14	-0.415	0.503	inactive
CG14507	2	-0.769	-0.165	0.238	inactive
CG34141	1	0.447	-0.0694	0.551	inactive
CG32944	1	0.241	0.981	-0.435	inactive
CG32944	2	0.532	0.465	-0.879	inactive
CG7872	1	0.00813	-0.00467	0.229	inactive
Ntl	1	0.253	-0.342	-0.479	inactive
Ntl	2	-0.122	-0.864	-0.833	inactive
dj-1beta	1	0.194	-0.118	-1.55	inactive
dj-1beta	2	0.134	0.31	-9.66	inactive
CG31642	1	-3	-0.0239	0.124	inactive
CG31642	2	-0.0751	0.222	0.805	inactive
Doc1	1	-0.695	-1.03	0.063	inactive
Doc1	2	0.826	0.126	1.41	inactive
CG8152	1	-4.19	-0.653	0.528	inactive
Hpd	1	-0.63	0.332	0.804	inactive
Hpd	2	-0.367	-0.249	-0.943	inactive
RhoGAPp190	1	1.05	-2.35	-0.213	inactive
RhoGAPp190	2	1.67	1.35	-0.301	inactive
ppk11	1	-3.77	0.363	-4.88	inactive
fng	1	-1.09	-1.14	-1.31	inactive
fng	2	0.313	-0.16	0.939	inactive
fng	3	-0.318	0.00991	-1.46	inactive
Sr-CIII	1	-0.0536	-0.753	0.303	inactive
Sr-CIII	2	0.00475	-1.47	-0.0913	inactive
Tsp33B	1	0.468	1.04	-1.15	inactive
Tsp33B	2	0.405	0.0656	-0.216	inactive
CG7220	1	0.365	1.01	1.95	inactive
CG7220	2	0.403	-0.525	0.686	inactive
CG7220	3	0.467	1.26	0.277	inactive
CG42500	1	0.758	-1.7	-0.0258	inactive
CG42460	1	-2.78	-0.152	-0.0765	inactive
Cpr67Fa2	1	-0.27	-0.212	-1.03	inactive
yellow-g2	1	0.662	0.166	0.34	inactive
CG4375	1	-3.44	-2.03	-0.00656	inactive
CG4375	2	-0.165	0.533	-11.1	inactive
CG15412	1	0.586	-0.856	-0.418	inactive
Doc2	1	0.57	0.193	-0.533	inactive
Doc2	2	0.702	-0.0798	-0.598	inactive
upd3	1	-3	-0.444	-0.215	inactive
upd3	2	-0.275	0.162	-4.54	inactive
upd3	3	0.184	-0.598	-0.172	inactive

Ordered by “Wolbachia per cell robust z, rep 1” (high to low): 9 of the entries above
gene	reagent no.	Wolbachia per cell robust z, rep 1	Wolbachia per cell robust z, rep 2	Wolbachia per cell robust z, rep 3	call
rudhira	2	0.855	0.565	0.76	inactive
rudhira	1	0.838	-0.634	-0.365	inactive
CG6660	1	0.684	-2.29	0.301	inactive
CG34141	1	0.447	-0.0694	0.551	inactive
CG32944	1	0.241	0.981	-0.435	inactive
Nckx30C	4	-0.0737	0.452	-0.328	inactive
rudhira	3	-0.61	-2.18	-1.2	inactive
CG14507	2	-0.769	-0.165	0.238	inactive
CG14507	1	-1.14	-0.415	0.503	inactive

Next results follow:
gene	reagent no.	Wolbachia per cell robust z, rep 1	Wolbachia per cell robust z, rep 2	Wolbachia per cell robust z, rep 3	call
Mipp2	1	0.499	-7.1	0.657	inactive
Aptx	1	-0.865	-5.36	0.554	inactive
Aptx	2	-0.648	0.726	-0.0822	inactive
Sbds	1	0.424	0.968	-1.03	inactive
Ugt303A1	1	-0.0774	0.65	0.16	inactive
a10	1	-1.37	0.227	0.993	inactive
kairos	1	0.148	0.539	-0.306	inactive
kairos	2	-9.46	-0.926	-11.1	inactive
morgue	1	-1.19	-6.53	-0.848	inactive
Imp	1	-0.758	0.0147	1.26	inactive
Imp	2	0.446	-1.75	-0.196	inactive
Imp	3	-0.146	-0.302	-1.08	inactive
Imp	4	-2.49	-0.78	-1.18	inactive
ine	1	0.914	-7.59	1.53	inactive
ine	2	-3.3	0.666	0.623	inactive
CG32023	1	-0.646	1.2	0.561	inactive
Plp	1	-0.49	0.591	0.298	inactive
Plp	2	-0.974	-0.249	-1.73	inactive
Plp	3	0.225	0.349	-0.066	inactive
CG16953	1	0.295	-0.326	-0.25	inactive
Setx	1	0.0334	0.984	1.28	inactive
CG42233	1	-1.04	-0.417	-0.377	inactive
CG42233	2	-0.793	0.892	-0.452	inactive
CG42233	3	-1.62	0.322	-0.633	inactive
CG42233	4	0.408	0.712	0.734	inactive
Mgat2	1	0.313	-1.07	-0.334	inactive
Mgat2	2	-1.82	-0.438	-0.771	inactive
Sf3b5	1	1.43	2.16	2.42	active
CG33288	1	-7.66	0.36	0.874	inactive
Dbp21E2	1	-0.14	-7.77	0.187	inactive
Dbp21E2	2	-0.0739	-0.816	-0.6	inactive
CG12877	1	-0.386	0.258	0.295	inactive
CG11585	1	0.101	0.375	1.03	inactive
CG11585	2	-5.92	-0.852	-0.461	inactive
CG12158	1	-2.05	-1.38	1.8	inactive
CG14230	1	1.29	0.567	0.326	inactive
